Experimental data reported in publication PMC12290673, “Antileishmanial and Antitoxoplasmal Activities of 1,4-Dihydropyridines” (ACS Omega, 2025).

Legend:
L. major amastigotes = experiment: Activity against L. major amastigotes in peritoneal macrophages (percentage of infected macrophages, Giemsa, 72 h); assay type: cell-based, Leishmania major; conditions: IC50 macrophages / EC50 L. major amastigotes
Protocol: L. major promastigotes were isolated and maintained according to a described method. BALB/c mice were injected at the hind footpads with 1 × 10^6 L. major metacyclic promastigotes. L. major amastigotes were collected from the infected mice. After 8 weeks had elapsed since inoculation, Schneider’s medium (Invitrogen, USA) containing antibiotics and 10% FBS was used to transform isolated amastigotes into promastigotes by incubation at 26 °C. Amastigote-derived promastigotes with less than five in vitro passages were only used for infection.
Female BALB/c mouse peritoneal macrophages (6–8 weeks old) were used to culture L. major amastigotes to assess the activity of the compounds against amastigotes. Briefly, 1 mL of 3% Brewer’s thioglycollate medium/mouse was injected into the peritoneal cavity. After 4 days, the abdominal skin was removed to expose the peritoneal wall. Then, 3 mL of RPMI 1640 medium was injected before cells were collected by aspiration, whereupon 96-well plates containing RPMI 1640 medium with 10% FBS were used to culture 5 × 10^4 cells/well, which were incubated at 37 °C under 5% CO2 for 4 h. After washing with PBS, RPMI 1640 medium containing 5 × 10^5 promastigotes were added to each well. Next, the cells were incubated at 37 °C under humidified 5% CO2 for 24 h to enhance infection and differentiation of amastigotes. Washing with PBS several times removed free promastigotes. Fresh complete RPMI 1640 medium containing one of the tested compounds or AmB at the desired final concentration (50, 25, 12.5, 6.25, 3.13, 1.65, 0.75, or 0.37 μg mL^–1) was added and incubated at 37 °C under a humidified 5% CO2 atmosphere for 72 h. DMSO (1%), only in complete RPMI media, was used as the negative control. The percentage of infected macrophages was assessed microscopically after the medium was removed, followed by washing with PBS, fixation with methanol, and staining with Giemsa. The reading was performed in triplicate. Handling of the laboratory animals followed the instructions and rules of the Committee of Research Ethics, Deanship of Scientific Research, Qassim University, permission number 20–03–20.

[1] = system: T. gondii tachyzoites (RH strain); experiment: Anti-Toxoplasma activity (infection index in Vero cells, 72 h); assay type: cell-based; conditions: IC50 Vero / EC50 T. gondii
Protocol: Tachyzoites of the T. gondii RH strain were cultivated in Vero cells according to a published method. Complete RPMI 1640 medium (Invitrogen, USA) with 10% fetal bovine serum (FBS, Invitrogen, USA) was used to culture Vero cells in 96-well plates (5 × 10^3 cells/well in 200 μL of medium), which were incubated at 37 °C and under 5% CO2 for 24 h. This was followed by washing with phosphate-buffered saline (PBS) to remove the medium. Then, RPMI 1640 medium with 2% FBS containing T. gondii tachyzoites (RH strain) at a ratio of 5 (parasite): 1 (Vero cells) was added. After incubation at 37 °C and under 5% CO2 for 5 h, the cells were washed with PBS and overlaid with medium containing one of the tested compounds or atovaquone (ATO) at 50, 25, 12.5, 6.25, 3.13, 1.65, 0.75, or 0.37 μg mL^–1.
After incubation at 37 °C and under 5% CO2 for 72 h, the cells were stained with 1% toluidine before being examined under an inverted photomicroscope (MCD-400, Leica, Japan) to determine the T. gondii infection index (number of infected cells from 200 tested cells). The experiment was performed in triplicate.

Row | SMILES | SI L. major macro/ama (L. major amastigotes) | SI Vero/T. gondii [1]
1 | CCOC(=O)C1=C(C)NC2=C(C(=O)CC(C)(C)C2)C1c1ccc(OCc2ccccc2)cc1 (racemic) [Compound 4, (±)-ethyl 4-(4-(benzyloxy)phenyl)-2,7,7-trimethyl-5-oxo-1,4,5,6,7,8-hexahydroquinoline-3-carboxylate] | 1.08 | 5.57
2 | CCOC(=O)C1=C(C)NC2=C(C(=O)CC(C)(C)C2)C1c1ccccc1[N+](=O)[O-] (racemic) [Compound 9, (±)-ethyl 2,7,7-trimethyl-4-(2-nitrophenyl)-5-oxo-1,4,5,6,7,8-hexahydroquinoline-3-carboxylate] |  | 0.37
3 | CCOC(=O)C1=C(C)NC2=C(C(=O)CC(C)(C)C2)C1c1ccc(C)cc1 (stereo not shown) [Compound 2] | <0.81 | <0.89
4 | CCOC(=O)C1=C(C)NC2=C(C(=O)CC(C)(C)C2)C1c1ccc(OC)cc1 (stereo not shown) [Compound 3] | <0.69 | 
5 | CCOC(=O)C1=C(C)NC2=C(C(=O)CC(C)(C)C2)C1c1ccc(N(C)C)cc1 (stereo not shown) [Compound 5] | 0.92 | 1.67
6 | CCOC(=O)C1=C(C)NC2=C(C(=O)CC(C)(C)C2)C1c1ccc(Br)cc1 (stereo not shown) [Compound 6] | 0.47 | 0.74
7 | CCOC(=O)C1=C(C)NC2=C(C(=O)CC(C)(C)C2)C1c1cccc([N+](=O)[O-])c1 (stereo not shown) [Compound 10] | 0.93 | 0.65
8 | CCOC(=O)C1=C(C)NC2=C(C(=O)CC(C)(C)C2)C1c1ccc(O)c(OC)c1 (stereo not shown) [Compound 11] | 0.89 | 1.70
9 | CCOC(=O)C1=C(C)NC2=C(C(=O)CC(C)(C)C2)C1c1ccc2c(c1)OCO2 (stereo not shown) [Compound 12] | 0.70 | 0.49
10 | CCOC(=O)C1=C(C)NC2=C(C(=O)CC(C)(C)C2)C1c1c(OC)cc(OC)cc1OC (stereo not shown) [Compound 14] | 0.8 | <0.47
11 | CCOC(=O)C1=C(C)NC2=C(C(=O)CC(C)(C)C2)C1c1cccs1 (stereo not shown) [Compound 16] | 0.94 | 1.55
12 | CCOC(=O)C1=C(C)NC(C)=C(C(=O)OCC)C1c1ccccc1 [Compound 17] |  | 1.21
13 | CCOC(=O)C1=C(C)NC(C)=C(C(=O)OCC)C1c1ccc(OC)cc1 [Compound 18] |  | <0.78
14 | CCOC(=O)C1=C(C)NC(C)=C(C(=O)OCC)C1c1ccc(OCc2ccccc2)cc1 [Compound 19] | 0.91 | <0.70
15 | CCOC(=O)C1=C(C)NC(C)=C(C(=O)OCC)C1c1ccc(Br)cc1 [Compound 20] | 0.88 | 
16 | CCOC(=O)C1=C(C)NC(C)=C(C(=O)OCC)C1c1cccc([N+](=O)[O-])c1 [Compound 22] | 0.84 | 1.72
17 | CCOC(=O)C1=C(C)NC(C)=C(C(=O)OCC)C1c1ccc(O)c(OC)c1 [Compound 23] | 0.73 | 0.74
18 | CCOC(=O)C1=C(C)NC(C)=C(C(=O)OCC)C1c1cc(OC)c(OC)c(OC)c1 [Compound 24] | 0.69 | <0.29
